A mixed list of measured activities; the numbers were collected in NIAID ChemDB.

All rows: tests on isolated targets

Inhibition is in % at the dose shown (toxicity tests: loss of growth or viability). Neighbouring rows are from separate reports. An empty or dashed field is not shown. ICn: concentration for n% inhibition.

smiles	dose	target	strain or isolate	measure	organism	method	value
CC(=O)Nc1c(O)cc(C(=O)O)cc1[N+](=O)[O-]	-	Neuraminidase	Memphis/3/89	IC50	Influenza B virus	-	1000 µM
CCC(CC)Nc1cc(C(=O)O)ccc1N1C(=O)CCC1(CO)CO	-	Neuraminidase	B/LEE	IC50	Influenza B virus	-	271 µM
CC(C)[C@H](C(=O)NC(=S)NC(=O)NC(C)(C)C)c1ccc(Cl)cc1	-	Neuraminidase	H1N1	IC50	Influenza A virus	-	0.26 µM
CC(N)C12CC3CC(CC(C3)C1)C2	100 µg/mL	Virion transcriptase	A/PR/1/74 rimantadine-susceptible	inhibition	Influenza A virus	nucleotide incorporation	51%
COCON1C(=O)/C(=C/c2ccc(OC)cc2)N(Cc2ccc(OC)cc2)[C@@H](CC(C)C)C1=O	-	Transcriptase	-	IC50	Influenza A virus	-	>200 µM
COC(=O)NC(=S)NC(=O)NC(C)(C)C	-	Neuraminidase	H1N1	IC50	Influenza A virus	-	1.6 µM
CC(=O)N[C@H]1[C@H]([C@H](O)[C@H](O)CO)OC(C(=O)O)=C[C@@H]1N	-	Sialidase	Influenza A/Mississippi/1/85 (H3N2)	IC50	Influenza A virus	-	0.23 µM
CC(C)(C)NC(=O)NC(=S)NC(=O)C1C(C=C(Cl)Cl)C1(C)C	-	Neuraminidase	H1N1	IC50	Influenza A virus	-	0.05 µM
NC(N)=N[C@H]1C=C(C(=O)O)O[C@@H]([C@H](O)[C@H](O)CO)C1	-	Influenza A sialidase	AICHI	IC50	Influenza A virus	-	130 µM
O=C(NC(=S)Nc1nc(Cl)cc(Cl)n1)c1ccc(-c2ccccc2Cl)o1	-	Neuraminidase	H1N1	IC50	Influenza A virus	-	1.6 µM
COCON1C(=O)[C@H]([C@H](O)c2ccc(F)cc2)N(Cc2ccc(OC)cc2)[C@@H](CC(C)C)C1=O	-	Transcriptase	-	IC50	Influenza A virus	-	>200 µM
CC(C)(C)NC(=O)NC(=S)NC(=O)COc1ccc(Cl)cc1Cl	-	Neuraminidase	H1N1	IC50	Influenza A virus	-	0.69 µM
COCON1C(=O)/C(=C/c2ccc(F)cc2)N(Cc2ccc(OC)cc2)[C@@H](CC(C)C)C1=O	-	Transcriptase	-	IC50	Influenza A virus	-	>200 µM
CCC(CC)[C@H](NC(C)=O)[C@@H]1[C@H](O)[C@@H](C(=O)O)C[C@H]1N=C(N)N	-	Influenza virus neuraminidase	-	IC50	Influenza B virus	-	0.00136 µM
CCC(CC)Nc1cc(C(=O)O)ccc1N1C(=O)CCC1(CO)CCO	-	Neuraminidase	Subtype N1	IC50	Influenza A virus	-	>1000 µM
COCON1C(=O)[C@H]([C@H](OS(C)(=O)=O)c2ccc(F)cc2)N(Cc2ccc(OC)cc2)[C@@H](CC(C)C)C1=O	-	Transcriptase	-	IC50	Influenza A virus	-	>200 µM

For reference, 2 entries again:

smiles	dose	target	strain or isolate	measure	organism	method	value
COCON1C(=O)[C@H]([C@H](OS(C)(=O)=O)c2ccc(F)cc2)N(Cc2ccc(OC)cc2)[C@@H](CC(C)C)C1=O	-	Transcriptase	-	IC50	Influenza A virus	-	>200 µM
CC(C)(C)NC(=O)NC(=S)NC(=O)COc1ccc(Cl)cc1Cl	-	Neuraminidase	H1N1	IC50	Influenza A virus	-	0.69 µM